{"source": "patent US6686393B1", "about": "“Pharmaceutical compositions having antiviral activity against human cytomegalovirus” (Murdock International Corporation, priority 1990, dated 2004)", "test_system": "human cytomegalovirus (HCMV), strain AD-169", "test": "Antiviral test (plaque reduction) versus HCMV, strain AD-169, in MRC-5 cells", "type": "cell-based", "parameters": "TI50: unit not given beside the values", "key": {"[1]": {"settings": "Table 9 summary, footnotes: ? = Slight Activity, N.A. = Not Active"}}, "note": "Where two headings read alike, the source gives them in different places."}
{"molecule": "O=C1c2ccccc2C(=O)c2c1ccc(O)c2O", "note": "[Alizarin, alizarin]", "values": [{"measurement": "TI", "value": "≈2"}, {"measurement": "TI50", "value": "˜2"}]}
{"molecule": "O=C1c2ccc(O)cc2C(=O)c2ccc(O)cc21", "note": "[Anthraflavic Acid, anthraflavic acid]", "values": [{"measurement": "TI", "value": "<1.0"}]}
{"molecule": "Cc1cc(O)c2c(c1)C(C1c3cc(C)cc(O)c3C(=O)c3c(O)cc(O)cc31)c1cc(O)cc(O)c1C2=O", "note": "(centres unmarked) [Emodin Bianthrone (d,1), emodin bianthrone]", "values": [{"measurement": "TI", "setting": "Example 2, N.A. = Not Active", "value": "<1.0"}, {"measurement": "TI", "setting": "[1]", "value": "<1.0"}]}
{"molecule": "Cc1cc(O)c2c(c1)C(C1c3cc(C)cc(O)c3C(=O)c3c(O)cc(O)cc31)c1cc(O)cc(O)c1C2=O", "note": "(stereo not drawn) [Emodin Bianthrone (meso), emodin bianthrone]", "values": [{"measurement": "TI", "setting": "Example 2, N.A. = Not Active", "value": "<1.0"}, {"measurement": "TI", "setting": "[1]", "value": "<1.0"}]}
{"molecule": "Cc1cc(O)c2c(c1)C(C1c3cc(C)cc(O)c3C(=O)c3c(O)cc(O)cc31)c1cc(O)cc(O)c1C2=O", "note": "(centres unmarked) [Emodin Bianthrone (mixed), emodin bianthrone]", "values": [{"measurement": "TI", "value": 1.8}]}
{"molecule": "O=C1c2ccc(O)c(O)c2C(=O)c2c(O)ccc(O)c21", "note": "[Quinalizarin, quinalizarin]", "values": [{"measurement": "TI", "value": 4}, {"measurement": "TI50", "value": 4}]}
{"molecule": "protohypericin", "values": [{"measurement": "TI", "value": 2}]}
